# Publication PMC3689846 (Science (New York, N.Y.), 2013)
# How the values were obtained:
# [1] = molecular target: eOD-GT3 (HIV-1 strain HxB2); test: SPR
# [2] = molecular target: eOD-GT6 (germline-targeting engineered outer domain of gp120) (HIV-1 isolate HXB2, engineered outer domain eOD-GT6); test: SPR
substance,measurement,setting,value
GL-VRC01 (predicted germline precursor of VRC01) (antibody),Kd,[1],220 nM
same,Kd,[2],44 nM
